Drawing on article PMC7894301, this text covers Kd for one substance.

Chains of the proteins cited; added tags and fusions are not shown. Residues count along the entry.
UniProt P02786, 121-760: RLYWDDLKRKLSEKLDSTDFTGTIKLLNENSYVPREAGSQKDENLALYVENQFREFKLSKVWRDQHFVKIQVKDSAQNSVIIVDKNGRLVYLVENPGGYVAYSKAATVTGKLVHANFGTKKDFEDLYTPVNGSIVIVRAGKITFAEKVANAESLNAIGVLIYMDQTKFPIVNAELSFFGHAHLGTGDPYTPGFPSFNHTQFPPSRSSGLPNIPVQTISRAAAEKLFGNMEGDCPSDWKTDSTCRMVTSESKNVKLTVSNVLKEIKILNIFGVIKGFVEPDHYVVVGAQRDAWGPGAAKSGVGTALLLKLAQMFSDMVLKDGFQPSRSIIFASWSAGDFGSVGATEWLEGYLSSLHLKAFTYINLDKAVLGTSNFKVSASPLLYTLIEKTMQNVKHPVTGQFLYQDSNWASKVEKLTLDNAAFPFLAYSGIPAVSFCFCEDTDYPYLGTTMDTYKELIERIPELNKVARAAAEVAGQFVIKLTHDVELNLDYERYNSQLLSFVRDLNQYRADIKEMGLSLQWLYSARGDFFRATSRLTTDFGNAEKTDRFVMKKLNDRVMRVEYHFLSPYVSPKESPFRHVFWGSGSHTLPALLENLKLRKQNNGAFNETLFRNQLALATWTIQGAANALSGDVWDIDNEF

The target of the assay is native Machupo virus glycoprotein 1 (residues 84-244), yeast surface displayed (Machupo virus) (UniProt Q8AZ52). Put plainly: flow cytometry on cells.

Take “solubilized ectodomain of human transferrin receptor 1 (amino acids 121 to 760), biotinylated (from UniProt P02786 121-760)”: the Kd amounted to 1500 nM.

The Kd is the equilibrium constant for the complex coming apart. A lower Kd goes with higher affinity.
